Compound potency records, mixed from different reports. Data source: NIAID ChemDB in PubChem.

Common to all: target-level tests; organism: HIV-1; protein: Reverse transcriptase; measure: IC50

ICn: concentration for n% inhibition.

structure | changes | read by | strain | value
CCN1c2ncc(CCOc3ccc(-c4cc(C(=O)O)ccc4F)cc3C)cc2C(=O)N(C)c2cccnc21 | RT-K103N Y181C | nucleotide incorporation / radiometric | IIIB | 0.05–0.1 µM
CC(C)(C)c1ccc(-n2nnnc2SCC(=O)Nc2ccc(C(=O)NN3CCOCC3)cc2Cl)c(Cl)c1 | RT-K103 Y181C | PicoGreen / fluorescence |  | <1 µM
CCN1c2ncc(CCOc3ccc(CC(=O)O)c4c3CCCC4)cc2C(=O)N(C)c2cccnc21 |  | nucleotide incorporation / radiometric | WT | <0.1 µM
CC(C)(C#Cc1ccc(NC(=O)CSc2nnnn2-c2cc(C(F)(F)F)ccc2Cl)c(Cl)c1)NC(=O)c1cc[n+]([O-])cc1 | RT-K103 Y181C | PicoGreen / fluorescence |  | <1 µM
CCN1c2ncc(CCOc3ccc(-c4cncnc4)cc3)cc2C(=O)N(C)c2cccnc21 |  | nucleotide incorporation / radiometric | IIIB | <0.05 µM
CCNc1cccnc1N(C)CCN(C)C(=O)c1cc2ccccc2[nH]1 |  | nucleotide incorporation |  | ~100 µM
COc1nnc2c3ccccc3c(N3CCc4ccc(N)cc4C3)nn12 |  | RT activity / fluorescence | IIIB | 2.71 µM
O=C(CSc1nnnn1-c1ccc(C2CC2)cc1Cl)Nc1ccc(-c2ccc(OCCN3CCCC3)cc2)cc1Cl |  | PicoGreen / fluorescence | WT | <1 µM
Cc1nnc2c3ccccc3c(N3CCC4CCCCC4C3)nn12 |  | RT activity / fluorescence | KER2008 | 3.07 µM
CCN1c2ncc(CCOc3ccc(CCC(=O)O)c4c3CCCC4)cc2C(=O)N(C)c2ccc(Cl)nc21 |  | nucleotide incorporation / radiometric | WT | <0.1 µM
Cc1nnc2c3ccccc3c(N3CCc4ccc(N)cc4C3)nn12 |  | RT activity / fluorescence | IIIB | 3.33 µM
CCOc1ccccc1N1CCN(C(=O)c2cc3ccccc3[nH]2)CC1 |  | nucleotide incorporation |  | <100 µM
CCc1cc(NCc2nc3c(C)ccc(C)c3o2)c(=O)[nH]c1C | RT-Y188H | nucleotide incorporation |  | 0.3948 µM
CCN1c2ncc(CCOc3ccc(NC(=O)CC(C)(C)C(=O)O)c4ccccc34)cc2C(=O)N(C)c2cccnc21 | RT-Y188L | nucleotide incorporation / radiometric |  | >1 µM
Cc1nnc2c3ccccc3c(N3CCc4ccc(C#N)cc4C3)nn12 |  | RT activity / fluorescence | 98US_MSC5016 | 4.28 µM
COC(=O)CN(C)CCOc1ccc(-c2ccc(NC(=O)CSc3nnnn3-c3ccc(C(C)(C)C)cc3Cl)c(Cl)c2)cc1 |  | PicoGreen / fluorescence | WT | <1 µM
CCN1c2ncc(CCOc3ccc(NS(=O)(=O)C(F)(F)F)c4ccccc34)cc2C(=O)N(C)c2ccc(F)nc21 | RT-Y188L | nucleotide incorporation / radiometric |  | >1 µM
COc1ccc2c(c1)CN(c1nn3c(C(C)C)nnc3c3ccccc13)CC2 |  | RT activity / fluorescence | IIIB | 0.24 µM
Cc1nnc(SCC(=O)Nc2ccc(C#CC(C)(C)COC(N)=O)cc2Cl)n1-c1ccc(C2CC2)cc1Cl | RT-K103 Y181C | PicoGreen / fluorescence |  | <1 µM
CC(=O)Nc1ccc2c(c1)CN(c1nn3c(C)nnc3c3ccccc13)CC2 |  | RT activity / fluorescence | IIIB | 20.4 µM
CCN1c2ncc(CCOc3cccc(-c4ccccc4)c3)cc2C(=O)N(C)c2cccnc21 | RT-K103N Y181C | nucleotide incorporation / radiometric | IIIB | >0.1 µM
CCN1c2ncc(CCOc3ccc4cc(C(=O)NC(C)(C)C(=O)O)ccc4c3)cc2C(=O)N(C)c2cccnc21 | RT-V106A | nucleotide incorporation / radiometric |  | 0.1–1 µM
CC(C)(C#Cc1ccc(NC(=O)CSc2nnnn2-c2ccc(CC3CC3)cc2Cl)c(Cl)c1)C(=O)O |  | PicoGreen / fluorescence | WT | <1 µM
CCN1c2ncc(CCOc3ccc(-c4ccc(CCC(=O)O)cc4)cc3C)cc2C(=O)N(C)c2cccnc21 | RT-K103N Y181C | nucleotide incorporation / radiometric | IIIB | <0.05 µM
CC(C)(C#Cc1ccc(NC(=O)CSc2nnnn2-c2cc(C(C)(C)C)cc(Br)c2Cl)c(Cl)c1)C(=O)O |  | PicoGreen / fluorescence | WT | <1 µM
CCN1c2ncc(CCOc3ccc(/C=C(\C)C(=O)O)c4ccccc34)cc2C(=O)Nc2c(C)cc(Cl)nc21 |  | nucleotide incorporation / radiometric | WT | <0.1 µM
CC(C)(O)C#Cc1ccc(NC(=O)CSc2nnnn2-c2ccc(C3CC3)cc2Cl)c(Br)c1 |  | PicoGreen / fluorescence | WT | <1 µM
CC(C)Nc1cccnc1N1CCN(C(=O)c2cc3cc(Br)ccc3[nH]2)CC1 |  | nucleotide incorporation |  | <100 µM
COC(C(=O)Nc1ccc(NC(=O)CSc2nnnn2-c2ccc(C(C)(C)C)cc2Cl)c(Cl)c1)c1ccccc1 | RT-K103 Y181C | PicoGreen / fluorescence |  | <1 µM
CCN1c2ncc(CCOc3ccc(C(=O)O)c4ccccc34)cc2C(=O)Nc2c(C)cc(F)nc21 | RT-V106A | nucleotide incorporation / radiometric |  | 0.1–1 µM
CC(C)(C)c1ccc(-n2nnnc2SCC(=O)Nc2ccc(OCC(=O)Nc3ccc(N4CCOCC4)cc3)cc2Cl)c(Cl)c1 | RT-K103 Y181C | PicoGreen / fluorescence |  | <1 µM
c1csc(-c2nnc3c4ccccc4c(N4CCc5ccccc5C4)nn23)c1 |  | RT activity / fluorescence | KER2008 | >100 µM
CC(C)(C#Cc1ccc(NC(=O)CSc2nnnn2-c2ccc(C(C)(C)C)cc2Cl)c(Cl)c1)OCC(=O)N1CCOCC1 | RT-K103 Y181C | PicoGreen / fluorescence |  | <1 µM
CCN1c2ncc(CCOc3ccc(C(C)C(=O)O)c4ccccc34)cc2C(=O)N(C)c2cccnc21 | RT-V106A | nucleotide incorporation / radiometric |  | >1 µM
CC(C)(C#Cc1ccc(NC(=O)CSc2nnnn2-c2cc(C(F)(F)F)ccc2Cl)c(Cl)c1F)OCCOc1ccncc1 |  | PicoGreen / fluorescence | WT | <1 µM
O=C(c1cc2cc(F)ccc2[nH]1)N1CCN(c2ncccc2NCC(F)(F)F)CC1 |  | nucleotide incorporation |  | >100 µM

Neighbouring rows are from separate reports. An empty or dashed field is not shown. a–b is a range or a potency band.